Pooled drug test results. Numbers come from NIAID ChemDB, via PubChem.

Common to all: tests in culture; organism: HIV-1; cell line: MT-4; measure: EC50

Conditions beyond the fields shown may differ between rows. ECn is the concentration giving n% inhibition of infection, replication or growth. Blank or dashed fields: not listed here.

smiles	strain	mutations	read by	result
C=CCn1c(C(=O)c2cccc3ccccc23)c(CC)c(=O)[nH]c1=O	IIIB		cytopathic effect / MTT	0.6 µM
C/C=C(/C)C(=O)O[C@@H]1[C@@H](C)[C@@]2(O)[C@@H](C=C(CO)C[C@]3(O)C(=O)C(C)=C[C@@H]23)[C@@H]2C(C)(C)[C@]12OC(C)=O	IIIB		MTT	0.009 µM
CCCCN(C)C(=O)Oc1nsnc1-c1c(Cl)cccc1Cl	IIIB		cytopathic effect	0.0338 µM
CC(C)[C@H](NC(=O)OCc1ccccc1)C(=O)N[C@@H](Cc1ccccc1)C(=O)C(F)(F)CCc1ccccn1	IIIB			5.7 µM
Cc1ccnc2c1NC(=O)c1cccnc1N2C1CC1	Recombinant	RT-V106A	cytopathic effect / MTT	5.012 µM
Nc1nc(NC2CC2)c2ncn([C@H]3C=C[C@@H](CO)C3)c2n1	HXB2	HXB2-RTwt	cytopathic effect / MTT	1.36 µM
Cc1cc(C#N)cc(C)c1Oc1nc(N/N=C/C2CCN(Cc3ccccn3)CC2)nc2ccsc12	IIIB		MTT	>4.18 µM
COc1ccc(CN=C2C=C(Cc3ccc4ccccc4c3)NS(=O)(=O)N2)cc1	IIIB		MTT	>148 µM
Nc1nc(N)c2ncn(CCOCP(=O)(O)O)c2n1	IIIB		cytopathic effect	0.3 µg/mL
Cc1cc(C#N)cc(C)c1Oc1nc(N/N=C/C2CCN(Cc3ccc(C#N)cc3)CC2)nc2ccsc12	RES056	K103N/Y181C	MTT	>23.6 µM
Nc1nc(Cl)nc2c1ncn2[C@@H]1C[C@H](O)[C@H](CO)O1			cytopathic effect / MTT	>10 µM
Cc1ccnc2c1NC(=O)c1cccnc1N2C1CC1		RT-M41L T215Y L100I		<0.4 µM
Fc1ccc(F)c(C2OCc3nc4ccccc4n32)c1	IIIB		cytopathic effect	6.1 µM
CCc1c(C(=O)c2cccc3ccccc23)n(COC)c(=O)[nH]c1=O	IIIB		cytopathic effect / MTT	5.89 µM
CC(=O)NCC(=O)N[C@H](C(=O)N[C@@H](Cc1ccccc1)C(=O)C(F)(F)CCc1ccccc1)C(C)C	IIIB			8.6 µM
CC(C)=CCN1Cc2cc(Cl)cc3[nH]c(=O)n(c23)C[C@@H]1C	IIIB			0.18 µM
CCN(CC)CC(O)CNc1c2ccc(Cl)cc2nc2ccc(OC)cc12			MTT	>1.7 µM
N=C1Sc2ccc(C3CC3)cc2C2=NCCCN12	IIIB		MTT	3.6 µM
Cc1cn([C@H]2C[C@H](N=[N+]=[N-])[C@@H](CO)O2)c(=O)[nH]c1=O	IIIB		MTT	0.007 µM
N=C1Sc2cc(Br)ccc2C2=NCC3(CCCCC3)CN12	IIIB		MTT	2.3 µM
CCCC(=O)O[C@@H]1[C@@H](C)[C@@]2(O)[C@@H](CC(=O)C[C@]3(O)C(=O)C(C)=C[C@@H]23)[C@@H]2C(C)(C)[C@]12OC(=O)CCC	IIIB		MTT	>20 µM
Cc1cn([C@H]2C=C[C@@H](COP(=O)(O)N(CC(=O)O)CC(=O)O)O2)c(=O)[nH]c1=O	IIIB		MTT	0.31 µM
CC(C)Nc1cccnc1N1CCN(C(=O)c2cc3cc(NS(C)(=O)=O)ccc3[nH]2)CC1	IIIB		MTT	0.32 µM
C/C=C(\C)CC/C=C(\C)CC/C=C(\C)CC/C=C(\C)CC/C=C(\C)CC/C=C(\C)CC/C=C(\C)CC/C=C(\C)CC/C=C(\C)Cn1c(C(=O)c2cccc3ccccc23)c(C(C)C)c(=O)[nH]c1=O	IIIB		cytopathic effect / MTT	>72.01 µM
Nc1ncnc2c1ncn2/C=C1/C[C@@H]1CO				50 µM
CC(=O)c1ccc2c(c1)SC(=N)N1CCCN=C21	IIIB		MTT	6.6 µM
C#CCn1c(C(=O)c2cccc3ccccc23)c(CC)c(=O)[nH]c1=O	IIIB		cytopathic effect / MTT	>4.82 µM
N=C1Sc2ccccc2C2=NCCCN12	IIIB		MTT	3.5 µM
Nc1ccn([C@H]2CC[C@@H](CO)O2)c(=O)n1	IIIB			2.6 µM
COc1ccc2nc3cc(Cl)ccc3c(N3CCN(c4ccccc4)CC3)c2c1			MTT	>100 µM
Cc1cn([C@H]2C[C@H](N=[N+]=[N-])[C@@H](CO)O2)c(=O)[nH]c1=O	IIIB		MTT	0.02 µg/mL
Nc1nc(Cl)nc2c1ncn2[C@@H]1CC[C@H](CO)O1			cytopathic effect / MTT	>10 µM
COc1ccc2nc3cc(Cl)ccc3c(NCCC[C@@H]3CCCN4CCCC[C@H]34)c2c1			MTT	>1.3 µM
Cc1ccc2c(c1)SC(=N)N1CCCN=C21	IIIB		MTT	5.1 µM
CC(=O)OCC1=C[C@H]2[C@@H]3C(C)(C)[C@]3(OC(=O)Cc3ccccc3)C[C@@H](C)[C@]2(O)[C@@H]2C=C(C)C(=O)[C@@]2(O)C1	IIIB		MTT	0.3 µM
N=C1Sc2cc(-c3ccc(OC(F)(F)F)cc3)ccc2C2=NCCCN12	IIIB		MTT	1.1 µM
Cc1cn([C@H]2C[C@H](N=[N+]=[N-])[C@@H](CO)O2)c(=O)[nH]c1=O	HxB2D(RT-D67G)	RT-D67G	RT activity	0.019 µM
CCCC(=O)O[C@@]12C[C@@H](C)[C@@]3(O)[C@@H](C=C(COC(C)=O)C[C@]4(O)C(=O)C(C)=C[C@@H]34)[C@@H]1C2(C)C	IIIB		MTT	0.6 µM
Cc1cc(C)c(NC2=NS(=O)(=O)NC(Cc3ccccc3)=C2)c(C)c1	IIIB		MTT	>191 µM
Nc1nc(=O)n([C@@H]2CO[C@H](CO)S2)cc1F	HXB2D		RT activity	6.6 µM
COc1ccc2nc3cc(Cl)ccc3c(N)c2c1			MTT	>1.8 µM
Cc1cc(/C=C/C#N)cc(C)c1Oc1nc(N/N=C/c2ccc(C#N)cc2)nc2ccsc12	IIIB		MTT	0.0944 µM
COc1ccc(NC2=NS(=O)(=O)NC(Cc3ccccc3)=C2)cc1	IIIB		MTT	>318 µM
CCCCNC(=O)Oc1nsnc1-c1c(Cl)cccc1Cl	IIIB		cytopathic effect	>129 µM
N=C1Sc2cccc(F)c2C2=NCCCN12	IIIB		MTT	3.7 µM
C=CCn1c(C(=O)c2cccc3ccccc23)c(C(C)C)c(=O)[nH]c1=O	IIIB		cytopathic effect / MTT	0.17 µM
COc1ccc2nc3cc(Cl)ccc3c(NN3CCN(C)CC3)c2c1			MTT	>8 µM
O=S1(=O)N=C(Nc2ccc(Cl)cc2)C=C(Cc2cccc3ccccc23)N1	IIIB		MTT	26 µM
Cc1ccc2c(c1)C1=NCCCN1C(=N)S2	IIIB		MTT	2.1 µM
Cc1ccc(-c2c(C)c(-c3ccc(C)c(C)c3)c3[nH]c(=O)ccc3c2C(OC(C)(C)C)C(=O)O)cc1C	IIIB		MTT	0.038 µM
Cc1cn([C@H]2C=C[C@@H](CO)O2)c(=O)[nH]c1=O	IIIB		MTT	0.3 µM
NS(=O)(=O)c1ccc(NC2=NS(=O)(=O)NC(Cc3ccccc3)=C2)cc1	IIIB		MTT	>318 µM
Cn1c(CN(CCN2CCCCC2)CC2CCCN(C3CCCC3)C2)nc2ccccc21	NL4-3		MTT	0.6 µM
CCCc1c(C)[nH]c(=O)c(N(C)C)c1Cc1cc(C)cc(C)c1	Recombinant	RT-K103N	cytopathic effect / MTT	100 µM
O=S1(=O)N=C(Nc2ccc(F)c(F)c2F)C=C(Cc2ccc3ccccc3c2)N1	IIIB		MTT	>143 µM
Nc1ccn([C@H]2CC[C@@H](CO)O2)c(=O)n1		RD 22-RTwt	cytopathic effect / MTT	0.69 µM
COc1ccc(CCN=C2C=C(Cc3ccccc3)NS(=O)(=O)N2)cc1	IIIB		MTT	>209 µM
c1cc(CN2CCCNCCNCCCNCC2)ccc1CN1CCCNCCNCCCNCC1	NL4-3		MTT	0.02 µM
Cc1c(Sc2ccccc2)n(COCCO)c(=O)[nH]c1=O	IIIB		cytopathic effect / MTT	5.06 µM
Nc1nc(=O)n([C@H]2CO[C@@H](CO)S2)cc1F	HXB2D (RT-M184V)	RT-M184V	RT activity	65 µM
CCC(Cc1ccccc1)c1cc(O)c(C(CC)c2ccccc2)c(=O)o1	IIIB		p24	3 µM
CCCCCCN(C)C(=O)Oc1nsnc1-c1c(Cl)cccc1Cl	IIIB		cytopathic effect	0.115 µM
c1ccc(C2OCc3nc4ccccc4n32)cc1	IIIB		cytopathic effect	>30 µM
CCc1c(C(=O)c2cccc3ccccc23)n(COCCOC)c(=O)[nH]c1=O	IIIB		cytopathic effect / MTT	5.71 µM
Nc1ncc2ncn(CCOCP(=O)(O)O)c2n1	IIIB		cytopathic effect	14 µg/mL
COc1ccccc1NC1=NS(=O)(=O)NC(Cc2cccc3ccccc23)=C1	IIIB		MTT	>161 µM
COP(=O)(C[C@H](NP(=O)(O)OC[C@@H]1C=C[C@H](n2cc(C)c(=O)[nH]c2=O)O1)C(=O)O)OC	IIIB		MTT	4.26 µM
N=C1Sc2cc(-c3ccc4c(c3)OCO4)ccc2C2=NCCCN12	IIIB		MTT	0.89 µM
Oc1ccccc1CN(CCN1CCCCC1)CC1CCCN(C2CCCC2)C1	NL4-3		MTT	2.6 µM
COc1ccc2nc3cc(Cl)ccc3c(N3CCCC(O)C3)c2c1			MTT	>6.2 µM